The exact form of at least one protein or probe is not confirmed.
Tested on: C4 (Trx-His fusion) (Cotton leaf curl Kokhran virus)
Experiment: EMSA
Conditions: recombinant protein; protein details: N-terminal Trx-His (pET32a); label: 5'-32P; single-stranded DNA

GCGTCGACGTCTTGCTCTAGAGATGTATCCATATGATGTTCCGGATTACGCGGAACGAGCTATACAAGG [69 nt ssDNA (SalI-XbaI-HA-Tag oligo, by length)]
binding result: binds
